A mixed list of measured activities; the numbers were collected in NIAID ChemDB.

Shared fields: growth or infection tests; organism: Mycobacterium avium complex

A number after MIC or MFC names an inhibition level or a share of isolates.

structure,read-out,strain or isolate,result
COc1c(N2CCC(n3ccnn3)C2)c(F)cc2c(=O)c(C(=O)O)cn(C3CC3)c12,MIC90,24 strains,>16 µg/mL
C[C@@H]1CN(c2c(F)c(N)c3c(=O)c(C(=O)O)cn(C4CC4)c3c2F)C[C@H](C)N1,MBC90,25 isolates,8 µg/mL
CCCCCCCCO[C@@H]1O[C@@H]([C@H](COC)O[C@H]2O[C@H](COCc3ccccc3)[C@@H](OCc3ccccc3)[C@@H]2OCc2ccccc2)[C@H](OC)[C@H]1OC,MIC,NJ168,>128 µg/mL
COc1cc(OC)cc(N(C)Cc2cnc3nc(N)nc(N)c3c2C)c1,MIC,NJ211,≤0.13 µg/mL
CC[C@H]1OC(=O)[C@H](C)[C@@H](OC(=O)C(C)C)[C@H](C)[C@@H](O[C@@H]2O[C@H](C)C[C@H](N(C)C)[C@H]2O)C(C)(O)C[C@@H](C)/C(=N\OCCCOc2ccccc2)[C@H](C)[C@@H](O)[C@]1(C)O,MIC,20096 (clarithromycin-resistant),12.5 µg/mL
CCCCCCCCO[C@@H]1O[C@H]([C@@H](COC)O[C@H]2O[C@H](CO)[C@@H](O)[C@@H]2O)[C@H](OC)[C@H]1OC,MIC,NJ211,>128 µg/mL
CC1COc2c(N3CCN(C)CC3)c(F)cc3c(=O)c(C(=O)O)cn1c23,MBC90,25 isolates,>8 µg/mL
CCCOc1ccc(OCC)cc1NCc1cnc2nc(N)nc(N)c2c1C,MIC,NJ3404,0.25 µg/mL
COc1ccc(C)c(NCc2cnc3nc(N)nc(N)c3c2C)c1,MIC,NJ3404,≤0.13 µg/mL
CCCCCCCCO[C@H]1OC([C@@H](COC)O[C@H]2O[C@H]([C@@H](O)CO)[C@@H](O)[C@@H]2O)[C@@H](OC)[C@@H]1OC,MIC,NJ168,>12.8 µg/mL
CC[C@H]1OC(=O)[C@H](C)[C@@H](O[C@H]2C[C@@](C)(OC)[C@@H](OC(C)=O)[C@H](C)O2)[C@H](C)[C@@H](O[C@@H]2O[C@H](C)C[C@H](N(C)C)[C@H]2O)C(C)(O)C[C@@H](C)/C(=N\OCCCCOc2ccccc2)[C@H](C)[C@@H](O)[C@]1(C)O,MIC,20092 (clarithromycin-resistant),3.13 µg/mL
Cc1c(CNc2cc(F)ccc2F)cnc2nc(N)nc(N)c12,MIC,NJ168,≤0.13 µg/mL
CCCCCCCCO[C@@H]1O[C@H]([C@@H](COCc2ccccc2)O[C@H]2O[C@H](CO)[C@@H](O)[C@@H]2O)[C@H](OCc2ccccc2)[C@H]1OCc1ccccc1,MIC,NJ211,>128 µg/mL
CC[C@H]1OC(=O)[C@H](C)[C@@H](O[C@H]2C[C@@](C)(OC)[C@@H](O)[C@H](C)O2)[C@H](C)[C@@H](O[C@@H]2O[C@H](C)C[C@H](N(C)C)[C@H]2O)[C@](C)(OC)C[C@@H](C)C(=O)[C@H](C)[C@@H](O)[C@]1(C)O,MIC,N-980 (HIV+),0.5 µg/mL
CC[C@H]1OC(=O)[C@H](C)[C@@H](OC2C[C@@](C)(OC)[C@@H](O)[C@H](C)O2)[C@H](C)[C@@H](O[C@@H]2O[C@H](C)C[C@H](N(C)C)[C@H]2O)C(C)(O)C[C@@H](C)/C(=N\OCCc2ccccc2)[C@H](C)[C@@H](O)[C@]1(C)O,MIC,20096 (clarithromycin-resistant),25 µg/mL
C[C@H]1C[C@H](N)CN1c1cc2c(cc1F)c(=O)c(C(=O)O)cn2-c1ccc(F)cc1F,MIC90,25 isolates,>8 µg/mL
COc1cccc(SCc2cnc3nc(N)nc(N)c3c2C)c1,MIC,NJ211,≤0.13 µg/mL
CO[C@H]1/C=C/O[C@@]2(C)Oc3c(C)c(O)c4c(O)c(c5c(c4c3C2=O)NC2(CCN(CC(C)C)CC2)N=5)=NC(=O)/C(C)=C\C=C\[C@H](C)[C@H](O)[C@@H](C)[C@@H](O)[C@@H](C)[C@H](OC(C)=O)[C@@H]1C,MIC,N-976 (HIV+),0.25 µg/mL
CC[C@H]1OC(=O)[C@H](C)[C@@H](O[C@H]2C[C@@](C)(OC)[C@@H](O)[C@H](C)O2)[C@H](C)[C@@H](O[C@@H]2O[C@H](C)C[C@H](N(C)C)[C@H]2O)[C@](C)(OC)C[C@@H](C)C(=O)[C@H](C)[C@@H](O)[C@]1(C)O,MIC50,25 isolates,4 µg/mL
C[C@@H]1CN(c2c(F)c(N)c3c(=O)c(C(=O)O)cn(C4CC4)c3c2F)C[C@H](C)N1,MBC,ATCC 13950,2 µg/mL
CC[C@H]1OC(=O)[C@H](C)[C@@H](O[C@H]2C[C@@](C)(OC)[C@@H](O)[C@H](C)O2)[C@H](C)[C@@H](O[C@@H]2O[C@H](C)C[C@H](N(C)C)[C@H]2O)[C@](C)(O)C[C@@H](C)CN(C)[C@H](C)[C@@H](O)[C@]1(C)O,MIC,G,8 µg/mL
CCCCCCCCO[C@@H]1O[C@H]([C@@H](CO)O[C@H]2O[C@H](CO)[C@@H](O)[C@@H]2O)[C@H](O)[C@H]1O,MIC,NJ211,>128 µg/mL
CC[C@H]1OC(=O)[C@H](C)[C@@H](O[C@H]2C[C@@](C)(OC)[C@@H](O)[C@H](C)O2)[C@H](C)[C@@H](O[C@@H]2O[C@H](C)C[C@H](N(C)C)[C@H]2O)[C@](C)(O)C[C@@H](C)CN(C)[C@H](C)[C@@H](O)[C@]1(C)O,MBC90,25 isolates,>8 µg/mL
CCCCCCCCOC1OC([C@H](CO)OC2O[C@@H](C(O)CO)[C@H](O)[C@H]2O)[C@H](O)[C@H]1O,MIC,NJ168,>128 µg/mL
C/C(=N\NC(N)=S)c1cccnc1,MIC,100,0.5 µg/mL
Cc1ccc(F)c(NCc2cnc3nc(N)nc(N)c3c2C)c1.O,MIC,NJ3404,≤0.13 µg/mL
CO[C@H]1/C=C/O[C@@]2(C)Oc3c(C)c(O)c4c(=O)c(c5oc6cc(N7CCN(CC(C)C)CC7)cc(=O)c6nc5c4c3=C2O)NC(=O)/C(C)=C\C=C\[C@H](C)[C@H](O)[C@@H](C)[C@@H](O)[C@@H](C)[C@H](OC(C)=O)[C@@H]1C,MIC,N-981 (HIV+),0.1 µg/mL
Cc1c(CNc2cccc3ncccc23)cnc2nc(N)nc(N)c12,MIC,NJ3404,≤0.13 µg/mL
CC[C@H]1OC(=O)[C@H](C)[C@@H](O[C@H]2C[C@@](C)(OC)[C@@H](OC(C)=O)[C@H](C)O2)[C@H](C)[C@@H](O[C@@H]2O[C@H](C)C[C@H](N(C)C)[C@H]2OC(=O)NN2CCCC2)C(C)(O)C[C@@H](C)/C(=N\OCCCC2CCCCC2)[C@H](C)[C@@H](O)[C@]1(C)O,MIC,20096 (clarithromycin-resistant),3.13 µg/mL
CCCCCCCCO[C@@H]1O[C@@H](C(CO[C@@H]2O[C@@H]([C@H](O)CO)[C@H](O)[C@H]2O)OCc2ccccc2)[C@H](OCc2ccccc2)[C@H]1OCc1ccccc1,MIC,NJ304,>128 µg/mL

Lines come from different laboratories, so protocols vary.